Pooled drug test results. Numbers come from NIAID ChemDB, via PubChem.

Shared fields: growth or infection tests; species: Adenovirus

Blank or dashed fields: not listed here. ECn: concentration that inhibits the pathogen or its effect by n%. Conditions beyond the fields shown may differ between rows. a–b is a range or a potency band.

compound,method,strain or isolate,measure,cells,result
CC(C)CS[C@@H]1C=C[C@H](n2cnc3c(N)ncnc32)C1,cytopathic effect,TYPE 1,EC50,A549,>100 µg/mL
COc1ccc(OC)c(/C=N/N=C(/N)NO)c1.Cc1ccc(S(=O)(=O)O)cc1,plaque count,ATCC VR18 (TYPE 17),EC50,VERO,>50 µM
Nc1ncnc2c1ncn2C[C@@H](CO)OCP(=O)(O)O,-,TYPE 4,MIC,-,0.3 µg/mL
CSc1nsc(-c2ccc(OCc3ccccc3)cc2)c1C#N,plaque count,TYPE 2,EC50,HEP-2,>50 µM
Nc1ncnc2c1ncn2C[C@H](O)CO,cytopathic effect,TYPES 1-8,EC50,HEL,>125 µg/mL
O=c1[nH]c(=O)n([C@H]2C[C@H](O)[C@@H](CO)O2)cc1I,plaque count,TYPE 3,EC50,HeLa,27.25 µg/mL
COc1ccc(-c2cc(N(C)C)no2)c(O)c1,plaque count,ATCC VR10,EC50,VERO,>427 µM
CC(C)Oc1ccccc1NC(=O)Nc1ccc2cnccc2n1,plaque count,-,EC50,-,>30 µg/mL
CCN(CC)c1noc(-c2ccc(O)cc2O)c1Cc1c(N(CC)CC)noc1-c1ccc(OC)cc1O,plaque count,ATCC VR10,EC50,VERO,>3.5 µM
Nc1nc2c(ccn2[C@@H]2C[C@H](CO)[C@@H](O)[C@@H]2O)c(=O)[nH]1,-,-,MIC,-,>100 µg/mL
Cc1ccc(S(=O)(=O)O)cc1.N/C(=N/N=C/c1ccc2c(c1)OCO2)NO,plaque count,ATCC VR18 (TYPE 17),EC50,VERO,>50 µM
CC1(C(=O)O)CCC2(C)CCC3(C)C(=CC(=O)C4C5(C)CCC(OC(=O)C6CCCCC6C(=O)O)C(C)(C)C5CCC43C)C2C1,virus yield,TYPE 5,EC99,-,300 µM
NSc1ncnc2c1ncn2[C@@H]1O[C@H](CO)[C@@H](O)[C@@H]1O,cytopathic effect,TYPE 2,EC50,-,>320 µM
Nc1nc2c(ncn2COC(CO)CO)c(=O)[nH]1,cytopathic effect,TYPE 5,EC50,HeLa,>400 µg/mL
COc1cc(O)c(/C=N/N=C(\N)NO)c(OC)c1.Cc1ccc(S(=O)(=O)O)cc1,plaque count,ATCC (TYPE 8),EC50,A549,100 µM
NS(=O)c1ncnc2c1ncn2[C@H]1C[C@H](O)[C@@H](CO)O1,cytopathic effect,TYPE 2,EC50,-,>320 µM
NC(N)=Nc1cccc(C(=O)NCC(=O)NC(CC(=O)O)c2cccs2)c1,-,TYPE 2,EC50,HUMAN 293/beta5,>100 µM
Nc1ccn(C[C@@H](CO)OCP(=O)(O)O)c(=O)n1,-,TYPE 2,MIC,-,3 µg/mL
C#CCOc1cc(OC)ccc1-c1cc(N(CC)CC)no1,plaque count,ATCC VR10,EC50,VERO,>40 µM
CN[C@H]1C[C@@H](n2cnc3c(N)ncnc32)[C@H](O)[C@@H]1O,-,TYPE 1,EC50,HFF,>100 µg/mL
CCN(CC)c1cc(-c2ccc(OC)cc2OC)on1,plaque count,ATCC VR10,EC50,VERO,>362 µM
O=C(O)CC(NC(=O)CNC(=O)c1cccc(NC2=NCCCCC2)c1)c1cccnc1,-,TYPE 2,EC50,HeLa,>100 µM
CCOc1ccc(-c2cc(N3CCCCC3)no2)c(O)c1,plaque count,ATCC VR10,EC50,VERO,>347 µM
NC(N)=Nc1cccc(C(=O)NCC(=O)NC(CC(=O)O)c2cc(Cl)cc(Cl)c2)c1,-,TYPE 2,EC50,HUMAN 293,100 µM
CSc1nsc(-c2ccccn2)c1C#N,plaque count,TYPE 2,EC50,HEP-2,>50 µM
Nc1ccn([C@H]2CC[C@@H](CO)O2)c(=O)n1,-,TYPE 4,EC50,HEP-2,4.29 µg/mL
NC(N)=Nc1cccc(C(=O)NCC(=O)NC(CC(=O)O)c2cccnc2)c1,-,TYPE 2,EC50,HeLa,<100 µM
N#Cc1c(-c2ccccc2)nsc1Cl,plaque count,TYPE 2,EC50,HEP-2,>20 µM
C#C[C@H](CC(=O)O)NC(=O)CNC(=O)c1cccc(N=C(N)N)c1,-,TYPE 2,EC50,HeLa,>100 µM
CCN(CC)c1cc(-c2ccc(O)cc2O)on1,plaque count,ATCC VR10,EC50,VERO,>121 µM
NS(=O)(=O)c1ncnc2c1ncn2[C@@H]1O[C@H](CO)[C@@H](O)[C@@H]1O,cytopathic effect,TYPE 2,EC50,-,>320 µM
NC(=O)CCN(CCC(N)=O)S(=O)(=O)c1cccc(Nc2nc(Nc3cccc(S(=O)(=O)N(CCC(N)=O)CCC(N)=O)c3)nc(Nc3ccc(-c4ccc(Nc5nc(Nc6cccc(S(=O)(=O)N(CCC(N)=O)CCC(N)=O)c6)nc(Nc6cccc(S(=O)(=O)N(CCC(N)=O)CCC(N)=O)c6)n5)cc4S(=O)(=O)O)c(S(=O)(=O)O)c3)n2)c1,cytopathic effect,TYPE 5,EC50,HEP-2,>375 µg/mL
Nc1ncnc2c1ncn2C[C@@H](CO)OCP(=O)(O)O,cytopathic effect,TYPES 1-8,EC50,HEL,0.6–2.5 µg/mL

The last 3 rows once more:

NS(=O)(=O)c1ncnc2c1ncn2[C@@H]1O[C@H](CO)[C@@H](O)[C@@H]1O ; method: cytopathic effect ; strain or isolate: TYPE 2 ; measure: EC50 ; result: >320 µM
NC(=O)CCN(CCC(N)=O)S(=O)(=O)c1cccc(Nc2nc(Nc3cccc(S(=O)(=O)N(CCC(N)=O)CCC(N)=O)c3)nc(Nc3ccc(-c4ccc(Nc5nc(Nc6cccc(S(=O)(=O)N(CCC(N)=O)CCC(N)=O)c6)nc(Nc6cccc(S(=O)(=O)N(CCC(N)=O)CCC(N)=O)c6)n5)cc4S(=O)(=O)O)c(S(=O)(=O)O)c3)n2)c1 ; method: cytopathic effect ; strain or isolate: TYPE 5 ; measure: EC50 ; cells: HEP-2 ; result: >375 µg/mL
Nc1ncnc2c1ncn2C[C@@H](CO)OCP(=O)(O)O ; method: cytopathic effect ; strain or isolate: TYPES 1-8 ; measure: EC50 ; cells: HEL ; result: 0.6–2.5 µg/mL